Results of unrelated studies side by side (data: NIAID ChemDB).

Shared fields: growth or infection tests; agent: Mycobacterium tuberculosis

A number after MIC or MFC names an inhibition level or a share of isolates.

structure,strain,method,measure,dose,value
COC(=O)Cc1ccc(Oc2cc(C(OC(C)=O)OC(C)=O)cc(OC)c2OC(C)=O)c(NC(C)=O)c1,H37Rv,-,MIC,-,125–250 µg/mL
COC1=C[C@@H](C)[C@@H]2C[C@H]3OC(=O)C[C@H]4C(C)=C(OC)C(=O)[C@H]([C@@]2(C)C1=O)[C@@]34C,H37Rv,-,EC50,-,>12.5 µg/mL
COc1ccc(NN2C(N)=C(C#N)C(c3cc4cc(C)ccc4nc3Cl)C3=C2CC(C)(C)CC3=O)cc1,H37Rv,agar,MIC,-,3 µg/mL
CCCCc1cc(C)c2cccc(CCCC)c2n1,H37Rv,-,MIC,-,>6.25 µg/mL
COc1ccc(C2=C/C(=C/c3cc4ccccc4nc3Cl)C(=O)O2)cc1,H37Rv,resazurin,EC50,-,>100 µg/mL
CCCCCCCCCCO/N=C/c1c2c(O)c3c(O)c(C)c4c(c3c1O)C(=O)[C@@](C)(O/C=C/[C@H](OC)[C@@H](C)[C@@H](OC(C)=O)[C@H](C)[C@H](O)[C@H](C)[C@@H](O)[C@@H](C)/C=C/C=C(/C)C(=O)N2)O4,H37Rv,-,MIC,-,20 µg/mL
Cc1ccc2nc(Cl)c(C3C(C#N)=C(N)N(Nc4ccc(Cl)cc4)C4=C3C(=O)CC(C)(C)C4)cc2c1,H37Rv,agar,MIC,-,15 µg/mL
C[C@H]1C[C@H](N)CN1c1cc2c(cc1F)c(=O)c(C(=O)O)cn2-c1ccc(F)cc1F,ATCC 35828,-,MIC,-,4 µg/mL
Cc1c2cnccc2c(C)c2c1c1ccccc1n2CCN(C)C,H37Rv,resazurin,MIC bound,-,<6.25 µg/mL
COc1ccc(NN2C(N)=C(C#N)C(c3cc4ccccc4nc3Cl)C3=C2CC(C)(C)CC3=O)cc1,H37Rv,agar,MIC,-,44 µg/mL
Cc1cc2nc3ccc(N=Nc4ccc(N(C)C)cc4)cc3n(-c3ccccc3)c-2cc1=N,EMB-R,-,MIC,-,≤0.1 µg/mL
CC(C)OC(=O)c1cc[n+](CC(=O)c2ccc(F)cc2)cc1.[Br-],H37Rv,resazurin,MIC,-,1 µg/mL
CC1COc2c(N3CCN(C)CC3)c(F)cc3c(=O)c(C(=O)O)cn1c23,ATCC 35826,-,MIC,-,0.5 µg/mL
CC[C@@H](CO)NCCN[C@@H](CC)CO,H37RV (DL8280-R),-,MIC,-,1.25 µg/mL
CC(=O)O[C@@H]1[C@H](C)[C@@H]2CC(=O)O[C@@H]3C[C@H]4[C@H](C)C[C@H](O)C(=O)[C@]4(C)[C@@H]([C@@H]1O)[C@@]32C,H37Rv,-,EC50,-,>12.5 µg/mL
CC(=O)Oc1ccccc1Oc1ccccc1[N+](=O)[O-],H37Rv,-,MIC,-,15.6–62.5 µg/mL
CCO/N=C/c1c2c(O)c3c(O)c(C)c4c(c3c1O)C(=O)[C@@](C)(O/C=C/[C@H](OC)[C@@H](C)[C@@H](OC(C)=O)[C@H](C)[C@H](O)[C@H](C)[C@@H](O)[C@@H](C)/C=C/C=C(/C)C(=O)N2)O4,H37Rv,-,MIC,-,0.1 µg/mL
CC1COc2c(N3CCN(C)CC3)c(F)cc3c(=O)c(C(=O)O)cn1c23,H37RV (ETH-R),-,MIC,-,1.25 µg/mL
CCc1ccc(C2=C/C(=C/c3cc4cc(Cl)ccc4nc3Cl)C(=O)O2)cc1,H37Rv,resazurin,EC50,-,>100 µg/mL
CO[C@H]1/C=C/O[C@@]2(C)Oc3c(C)c(O)c4c(O)c(c(/C=N/OCCCCC(Br)CBr)c(O)c4c3C2=O)NC(=O)/C(C)=C\C=C\[C@H](C)[C@H](O)[C@@H](C)[C@@H](O)[C@@H](C)[C@H](OC(C)=O)[C@@H]1C,H37Rv,-,MIC,-,0.5 µg/mL
COC1/C=C\C=C(/C)C(=O)Nc2cc3nc4ccc(Br)cc4oc-3c(c2=O)CC(C)CC(OC)C(O)C(C)/C=C(\C)C1OC(N)=O,RMP-R,-,MIC,-,12.5 µg/mL
COC(=O)[C@]12OC[C@]34[C@H]([C@@H](O)[C@H]1O)[C@@]1(C)CC(=O)C(O)=C(C)[C@@H]1C[C@H]3OC(=O)[C@H](OC(=O)/C=C(\C)C(C)C)[C@@H]24,H37Rv,-,EC50,-,>12.5 µg/mL
O=C1C(=O)c2ccccc2C(O)=C1C(CCc1ccccc1)C1=C(O)c2ccccc2C(=O)C1=O,H37Rv,BACTEC,MIC,-,≥12.8 µg/mL
CC1COc2c(N3CCN(C)CC3)c(F)cc3c(=O)c(C(=O)O)cn1c23,206 isolates (susceptible),-,Mean MIC,-,0.842 µg/mL
CC1(C)CC(=O)C2=C(C1)N(Nc1ccc(Br)cc1)C(N)=C(C#N)C2c1cc2cc(Cl)ccc2nc1Cl,H37Rv,agar,MIC,-,85 µg/mL
C=CCCCCO/N=C/c1c2c(O)c3c(O)c(C)c4c(c3c1O)C(=O)[C@@](C)(O/C=C/[C@H](OC)[C@@H](C)[C@@H](OC(C)=O)[C@H](C)[C@H](O)[C@H](C)[C@@H](O)[C@@H](C)/C=C/C=C(/C)C(=O)N2)O4,H37Rv,-,MIC,-,0.5 µg/mL
O=c1ccc2nc3ccc(O)cc3sc-2c1,H37Rv,BACTEC,MIC bound,-,>12.5 µg/mL
CO[C@H]1/C=C/O[C@@]2(C)Oc3c(C)c(O)c4c(O)c(c(/C=N/OC(Cc5ccccc5)C(=O)O)c(O)c4c3C2=O)NC(=O)/C(C)=C\C=C\[C@H](C)[C@H](O)[C@@H](C)[C@@H](O)[C@@H](C)[C@H](OC(C)=O)[C@@H]1C,H37Rv,-,MIC,-,5 µg/mL
S=C(Nc1ccc(Br)c(Cl)c1)SCc1ccc2c(c1)OCO2,H37Rv,BACTEC,MIC,-,64 µg/mL
COc1cc(/C=C/[N+](=O)[O-])ccc1OC(C)=O,H37Rv,-,MIC,-,62.5 µg/mL
COC(=O)c1cc(NC(=O)Nc2cc(C(=O)OC)n(C)c2)cn1C,H37Rv,resazurin,inhibition,6.25 µg/mL,8%
CO[C@H]1/C=C/O[C@@]2(C)Oc3c(C)c(O)c4c(O)c(c(/C=N/OCCN5CCCC5)c(O)c4c3C2=O)NC(=O)/C(C)=C\C=C\[C@H](C)[C@H](O)[C@@H](C)[C@@H](O)[C@@H](C)[C@H](OC(C)=O)[C@@H]1C,H37Rv,-,MIC,-,2 µg/mL
CC1=CC(=O)[C@@H](O)[C@]2(C)[C@@H]3[C@]45COC(=O)[C@@]3(O)C(C)[C@@H]4CC(=O)O[C@@H]5C[C@@H]12,H37Rv,-,inhibition,12.5 µg/mL,15%
C[C@]12CC([C@]3(O)CC[C@H]4[C@@H]5C[C@H]6O[C@]67[C@@H](O)C=CC(=O)[C@]7(C)[C@H]5CC[C@@]43C)[C@H](C1)OC(=O)[C@]2(C)O,H37Rv,BACTEC,MIC,-,≥12.5 µg/mL
COC1=C[C@@H](C)[C@@H]2C[C@H]3OC(O)C[C@H]4[C@](C)(O)[C@H](OC)[C@@H](O)[C@H]([C@@]2(C)C1=O)[C@@]34C,H37Rv,-,EC50,-,>12.5 µg/mL
O=Cc1ccc(O)c(Oc2ccc(C=O)cc2[N+](=O)[O-])c1,H37Rv,-,MIC,-,125 µg/mL
CO[C@H]1/C=C/O[C@@]2(C)Oc3c(C)c(O)c4c(O)c(c(N5CCN(Cc6c(C)cc(C)cc6C)CC5)c(O)c4c3C2=O)NC(=O)/C(C)=C\C=C\[C@H](C)[C@H](O)[C@@H](C)[C@@H](O)[C@@H](C)[C@H](OC(C)=O)[C@@H]1C,Rifampicin-resistant,-,MIC,-,>3 µg/mL
COC(=O)Cc1cc(I)c(Oc2ccc(OC)cc2)c(I)c1,H37Rv,-,MIC,-,250 µg/mL
Cl.Cl.O=C(Nc1cccc(C(=O)Nc2ccc(C3=NCCN3)cc2)c1)c1ccc(C2=NCCN2)cc1,H37Rv,BACTEC,MIC bound,-,≤12.5 µg/mL
COc1cc(/C=C/[N+](=O)[O-])cc(Br)c1OCc1ccccc1,H37Rv,-,MIC,-,250 µg/mL
COc1ccc2nc(Cl)c(C3C(C#N)=C(N)N(Nc4ccccc4)C4=C3C(=O)CC(C)(C)C4)cc2c1,H37Rv,agar,MIC,-,80 µg/mL
COc1ccccc1Oc1ccc(/C=N/NC(N)=O)cc1[N+](=O)[O-],H37Rv,-,MIC,-,125–250 µg/mL
NNC(=O)c1ccncc1,H37Rv,-,MIC99,-,0.05 µg/mL
COc1ccc2c(c1)[n+]([O-])c(S(=O)(=O)c1ccc(C)cc1)c(N)[n+]2[O-],RMP-R,-,MIC,-,12.5 µg/mL
COC(=O)[C@]12OC[C@]34[C@H]([C@@H](O)[C@@H]1O)[C@@]1(C)C(=O)C(O)=C[C@@H](C)[C@@H]1C[C@H]3OC(=O)[C@H](OC(=O)/C=C(\C)C(C)C)[C@@H]24,H37Rv,-,EC50,-,>12.5 µg/mL
COc1cccc(C(=O)Nc2nnc(COc3ccc4c(C)cc(=O)oc4c3)o2)c1,H37Rv,resazurin,EC50,-,>100 µg/mL
C[C@H]1COc2c(N3CCN(C)CC3)c(F)cc3c(=O)c(C(=O)O)cn1c23,Drug-resistant,-,MIC90,-,0.25 µg/mL
O=C1CC(=S)N=CN1,H37Rv,BACTEC,inhibition,12.5 µg/mL,7%
CC[C@H]1OC(=O)[C@H](C)[C@@H](O[C@H]2C[C@@](C)(OC)[C@@H](O)[C@H](C)O2)[C@H](C)[C@@H](O[C@@H]2O[C@H](C)C[C@H](N(C)C)[C@H]2O)[C@](C)(OC)C[C@@H](C)C(=O)[C@H](C)[C@@H](O)[C@]1(C)O,DRUG-SUS,-,MIC90,-,>8 µg/mL
O=[n+]1c2ccccc2n([O-])c2ccccc21.[Cl][Cu][Cl],PAS-R,-,MIC,-,3.1 µg/mL
COC1=C[C@@H](C)[C@@H]2C[C@H]3OC(=O)C[C@H]4[C@](C)(O)[C@H](OC)[C@@H](OC(C)=O)[C@H]([C@@]2(C)C1=O)[C@@]34C,H37Rv,-,inhibition,12.5 µg/mL,5%
O=C1C(c2ccccc2)C2C=CC(C2)N1O,H37Rv,BACTEC,MIC bound,-,>12.5 µg/mL
COc1ccc2nc(Cl)c(C3C(C#N)=C(N)N(Nc4ccc(Br)cc4)C4=C3C(=O)CC(C)(C)C4)cc2c1,H37Rv,agar,MIC,-,17 µg/mL
NNC(=O)C(Cc1cnc[nH]1)NC(=O)CNC(=O)OCc1ccccc1,H37Rv,BACTEC,MIC,-,≥12.5 µg/mL
CO[C@H]1/C=C/O[C@@]2(C)Oc3c(C)c(O)c4c(O)c(c(/C=N/OC(C)C)c(O)c4c3C2=O)NC(=O)/C(C)=C\C=C\[C@H](C)[C@H](O)[C@@H](C)[C@@H](O)[C@@H](C)[C@H](OC(C)=O)[C@@H]1C,H37Rv,-,MIC,-,0.05 µg/mL
CC(=O)NNc1nc(C)c(C(=O)NNC(=O)C(=O)Nc2ccccc2C#N)s1,H37Rv,BACTEC,MIC bound,-,>12.5 µg/mL
Cc1c(F)c(N2CCNC(C)C2)cc2c1c(=O)c(C(=O)O)cn2C1CC1,206 isolates (susceptible),-,MIC90,-,1 µg/mL
Cc1cc(C)n(/N=C/c2ccc([N+](=O)[O-])o2)c(=O)c1C#N,H37Rv,BACTEC,MIC,-,≥12.5 µg/mL
CO[C@H]1/C=C/O[C@@]2(C)Oc3c(C)c(O)c4c(O)c(c(/C=N/N5CCN(C)CC5)c(O)c4c3C2=O)NC(=O)/C(C)=C\C=C\[C@H](C)[C@H](O)[C@@H](C)[C@@H](O)[C@@H](C)[C@H](OC(C)=O)[C@@H]1C,H37RV (DL8280-R),-,MIC,-,3 µg/mL
CCOC(=O)c1cc(=O)oc2c1N(C)c1ncccc1N2,H37Rv,resazurin,MIC bound,-,>6.25 µg/mL
CO[C@H]1/C=C/O[C@@]2(C)Oc3c(C)c(O)c4c(O)c(c(/C=N/OCCc5ccccc5)c(O)c4c3C2=O)NC(=O)/C(C)=C\C=C\[C@H](C)[C@H](O)[C@@H](C)[C@@H](O)[C@@H](C)[C@H](OC(C)=O)[C@@H]1C,H37Rv,-,MIC,-,0.2 µg/mL
O=CNNC(=O)CN1C(=O)c2ccccc2C1=O,H37Rv,BACTEC,MIC bound,-,>12.5 µg/mL
COC(=O)Cc1cc(I)c(Oc2cc(C(Br)C(Br)[N+](=O)[O-])cc(OC)c2O)c(I)c1,H37Rv,-,MIC,-,31.25–125 µg/mL
CCOc1ncn(-c2ccc(NC(=S)NC34CC5CC(CC(C5)C3)C4)cc2)n1,H37Rv,BACTEC,inhibition,12.5 µg/mL,96%
Nc1ccc(C(=O)O)c(O)c1,H37RV (DL8280-R),-,MIC,-,0.1 µg/mL
CC(C(=O)O)N1C(=O)C2C3C=CC(C3)C2C1=O,H37Rv,BACTEC,inhibition,12.5 µg/mL,12%
O=C1OC(c2ccccc2)=C/C1=C/c1cc2cc(Cl)ccc2nc1Cl,H37Rv,resazurin,EC50,-,>100 µg/mL

Repeating the first 6 entries:

structure	strain	method	measure	dose	value
COC(=O)Cc1ccc(Oc2cc(C(OC(C)=O)OC(C)=O)cc(OC)c2OC(C)=O)c(NC(C)=O)c1	H37Rv	-	MIC	-	125–250 µg/mL
COC1=C[C@@H](C)[C@@H]2C[C@H]3OC(=O)C[C@H]4C(C)=C(OC)C(=O)[C@H]([C@@]2(C)C1=O)[C@@]34C	H37Rv	-	EC50	-	>12.5 µg/mL
COc1ccc(NN2C(N)=C(C#N)C(c3cc4cc(C)ccc4nc3Cl)C3=C2CC(C)(C)CC3=O)cc1	H37Rv	agar	MIC	-	3 µg/mL
CCCCc1cc(C)c2cccc(CCCC)c2n1	H37Rv	-	MIC	-	>6.25 µg/mL
COc1ccc(C2=C/C(=C/c3cc4ccccc4nc3Cl)C(=O)O2)cc1	H37Rv	resazurin	EC50	-	>100 µg/mL
CCCCCCCCCCO/N=C/c1c2c(O)c3c(O)c(C)c4c(c3c1O)C(=O)[C@@](C)(O/C=C/[C@H](OC)[C@@H](C)[C@@H](OC(C)=O)[C@H](C)[C@H](O)[C@H](C)[C@@H](O)[C@@H](C)/C=C/C=C(/C)C(=O)N2)O4	H37Rv	-	MIC	-	20 µg/mL

ECn is the concentration giving n% inhibition of infection, replication or growth. Two numbers with a dash give a range or band. Conditions beyond the fields shown may differ between rows. Percent inhibition refers to the dose given; in toxicity tests it is the harm to the cells. Blank or dashed fields: not listed here. MIC bound comes from a single tested concentration.